Compound potency records, mixed from different reports. Data source: NIAID ChemDB in PubChem.

Common to all: growth or infection tests; agent: HIV-1; read by: β-galactosidase; read-out: EC50

Rows are shuffled and stem from different studies. An empty or dashed field is not shown. ECn: concentration that inhibits the pathogen or its effect by n%.

compound	changes	strain	conditions	cell line	result
C[N+]1(Cc2ccc(NC(=O)C3=Cc4cc(-c5ccccc5)ccc4CC3)cc2)CCCC1		JR-FL		MAGI + MAGI-CCR5	1.1 µM
Cc1cn([C@H]2C=C[C@@H](CO)O2)c(=O)[nH]c1=O	RT-M184V	NL4-3		MAGI (CCR5) + MAGI	0.22 µM
CCn1nc(Cc2ccc(Cl)cc2)cc1C1CCN(C[C@H]2CN([C@@H](C(=O)O)C(C)C)C[C@@H]2c2cccc(F)c2)CC1		BaL		HeLa	<0.0037 µM
COC(=O)N[C@H](C(=O)N[C@@H](Cc1ccccc1)[C@@H](O)CN(Cc1ccc(-c2ccccn2)cc1)NC(=O)[C@@H](NC(=O)OC)C(C)(C)C)C(C)(C)C	PR-L10I G48V L90M	Site-directed PR mutant 03		HeLa	0.00366 µM
CC[C@]1(CO)O[C@@H](n2cc(C)c(=O)[nH]c2=O)C[C@@H]1O	RT	RTMDR		HeLa	>100 µM
O=C(O)c1cc(C(=O)O)cc(-c2c3nc(c(-c4cc(C(=O)O)cc(C(=O)O)c4)c4ccc([nH]4)c(-c4cc(C(=O)O)cc(C(=O)O)c4)c4nc(c(-c5cc(C(=O)O)cc(C(=O)O)c5)c5ccc2[nH]5)C=C4)C=C3)c1		IIIB		MAGI cell	1.7 µM
O=C(O)c1c(Br)c(Br)c(Br)c(Br)c1-c1c2ccc(=O)c(O)c-2oc2c(O)c(O)ccc12		IIIB		MAGI	12.8 µM
Cc1ccc(-c2ccc3c(c2)C=C(C(=O)Nc2ccc(C[N+](C)(C)C4CCOCC4)cc2)CCC3)cc1		JR-FL		MAGI + MAGI-CCR5	0.0014 µM
Cc1cc(O)cc(S(=O)(=O)c2cccc(N)c2C#N)c1	RT-E138K			HeLa + HELA CD4+	0.08 µM
c1cc(CN2CCCNCCNCCCNCC2)ccc1CN1CCCNCCNCCCNCC1		A018A		MAGI + MAGI-CCR5	0.049 µM
C#C[C@]1(CO)O[C@@H](n2cc(C)c(=O)[nH]c2=O)C[C@@H]1O	RT M41L T69SSG insertion T215Y	RT-M41L T69SSG T215Y		HeLa	0.44 µM
Cc1cc(Cl)cc(S(=O)(=O)c2cccc(N)c2C#N)c1	RT-V106A Y181C			HeLa + HELA CD4+	0.077 µM
Cc1cc(S(N)(=O)=O)ccc1NC(=O)COc1ccc(Cl)cc1C(=O)c1cc(Cl)cc(C#N)c1	RT-K103N L100I	NNRTI-resistant (RT K103N L100I)		MAGI	0.0015 µM
CCn1nc(Cc2ccc(Oc3ccccc3)cc2)cc1C1CCN(C[C@H]2CN([C@@H](C(=O)O)C3CCCCC3)C[C@@H]2c2cccc(F)c2)CC1		BaL		HeLa	<0.0012 µM
COc1ccc(NC(=O)CSc2nnnn2-c2c(C)cc(C)cc2C)cc1Cl	WT	NL4-3		HeLa CD4	0.418 µM
C#C[C@@]1(CO)C=C[C@H](n2cc(C)c(=O)[nH]c2=O)O1	RT-K103N M184V	NL4-3		MAGI (CCR5) + MAGI	0.31 µM
CCCCOc1ccc(Cc2cc(C3CCN(C[C@H]4CN([C@@H](C(=O)O)C(C)(C)C)C[C@@H]4c4cccc(F)c4)CC3)n(CC)n2)cc1		BaL		HeLa	<0.0012 µM
CSc1ccccc1NC(=O)CSc1nnnn1-c1ccccc1SC	M184V (3TC-resistant)	NL4.3-XCS		HeLa CD4	0.206 µM
CCn1nc(Cc2ccc(OC)cc2)cc1C1CCN(C[C@H]2CN([C@@H](C(=O)O)C(C)(C)C)C[C@@H]2c2cccc(F)c2)CC1		BaL	50% human serum	HeLa	<0.033 µM
Cc1cc(Br)cc(S(=O)(=O)c2cccc(N)c2C#N)c1	RT-Y188C			HeLa + HELA CD4+	0.21 µM
CC[C@H](C)[C@H](C(=O)O)N1C[C@H](CN2CCC(c3cc(Cc4cccc(CN)c4)nn3CC)CC2)[C@@H](c2cccc(F)c2)C1		BaL		HeLa	<0.0012 µM
Cc1cn([C@H]2C[C@H](N=[N+]=[N-])[C@@H](CO)O2)c(=O)[nH]c1=O	188L-190A (nevirapine-resistant)	NL4.3-XCS		HeLa CD4	0.113 µM
O=C(O)/C=C/c1ccc[c]([Sb](=[O])([OH])[OH])c1		92US077 X4/R5 clinical isolate		MAGI	<20 µM
N#CC1C=Cc2ccccc2C1C(=O)/C=C/c1ccccc1	K103N (NVP)	NL4.3-XCS		HeLa CD4	1.534 µM
C=C[C@]1(CO)O[C@@H](n2cc(C)c(=O)[nH]c2=O)C[C@@H]1O		HXB2		HeLa	8.1 µM
O=C(O)c1ccc(-c2c3nc(c(-c4ccc(C(=O)O)cc4)c4ccc([nH]4)c(-c4ccc(C(=O)O)cc4)c4nc(c(-c5ccc(C(=O)O)cc5)c5ccc2[nH]5)C=C4)C=C3)cc1		IIIB		MAGI cell	2.6 µM
Cc1ccc(-c2ccc3c(c2)C=C(C(=O)Nc2ccc(C[N+](C)(C)C4CCSCC4)cc2)CCO3)cc1		JR-FL		MAGI + MAGI-CCR5	0.006 µM
COc1cc(C(F)(F)F)cc(S(=O)(=O)c2cccc(N)c2C#N)c1	RT-Y181C			HeLa + HELA CD4+	13 µM
C[N+](C)(Cc1ccc(NC(=O)C2=Cc3cc(-c4ccc(N5CCCCC5)cc4)ccc3CCC2)cc1)C1CCOCC1		JR-FL		MAGI + MAGI-CCR5	0.0013 µM
O=C([O-])c1cc(COc2ccc(-c3c4nc(c(-c5ccc(OCc6cc(C(=O)[O-])cc(C(=O)[O-])c6)cc5)c5ccc([nH]5)c(-c5ccc(OCc6cc(C(=O)[O-])cc(C(=O)[O-])c6)cc5)c5nc(c(-c6ccc(OCc7cc(C(=O)[O-])cc(C(=O)[O-])c7)cc6)c6ccc3[nH]6)C=C5)C=C4)cc2)cc(C(=O)[O-])c1		BaL		MAGI cell	0.19 µM
O=C1CCCN1CCCN1CC(=O)N2CC(N(CCOc3ccccc3)S(=O)(=O)c3cccc(F)c3)C[C@H]2C1=O		BaL		HeLaP4	0.197 µM
Nc1ccn([C@H]2C[C@H](O)[C@](CO)(CF)O2)c(=O)n1	RT-L74V			HeLa	0.0019 µM
CCn1nc(Cc2ccccc2)cc1C1CCN(C[C@H]2CN([C@@H](C(=O)O)C3CCCCC3)C[C@@H]2c2cccc(F)c2)CC1		BaL		HeLa	<0.0004 µM
c1cc(CN2CCCNCCNCCCNCC2)ccc1CN1CCCNCCNCCCNCC1		BaL		HeLaP4	>1 µM

For reference, 4 entries again:

compound | changes | strain | conditions | cell line | result
CCn1nc(Cc2ccc(Cl)cc2)cc1C1CCN(C[C@H]2CN([C@@H](C(=O)O)C(C)C)C[C@@H]2c2cccc(F)c2)CC1 |  | BaL |  | HeLa | <0.0037 µM
C[N+](C)(Cc1ccc(NC(=O)C2=Cc3cc(-c4ccc(N5CCCCC5)cc4)ccc3CCC2)cc1)C1CCOCC1 |  | JR-FL |  | MAGI + MAGI-CCR5 | 0.0013 µM
Cc1cc(Cl)cc(S(=O)(=O)c2cccc(N)c2C#N)c1 | RT-V106A Y181C |  |  | HeLa + HELA CD4+ | 0.077 µM
Cc1cn([C@H]2C=C[C@@H](CO)O2)c(=O)[nH]c1=O | RT-M184V | NL4-3 |  | MAGI (CCR5) + MAGI | 0.22 µM